This is one part of the list. Active and inactive are the calls of the source. Cut-off read from the data, not from the text of the source: inconclusive = inhibition above about 80% without an active follow-up result; inactive = below that; test concentration not stated here.
Assay: M. tuberculosis H37Rv growth inhibitors, H37Rv strain (AID 1626);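 note: bacteria incubated seven days before Alamar blue readout; 0% = bacteria only wells and 100% = bacteria with antibiotic wells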
Details: hits give high values, concentration not given here

| Structure (SMILES) | inhibition |
| --- | --- |
| Cc1ccc(OP(=O)(Nc2ccc([N+](=O)[O-])cn2)Oc2ccc(C)cc2)cc1 | inactive: -9.63% |

Reference: PubChem BioAssay AID1626 (SRMLSC, 2009)
